Taken from: PubChem BioAssay AID504761 (Drosophila RNAi Screening Center, 2011)
The screen tested about 22,000 reagents; shown is an unselected part of those that have a named target and a result. Over the whole deposit, 116 (0.52%) are marked active. 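Calls depend on retest data that are not deposited; infection was ranked per plate without normalising between plates; the unit of the infection score is not given.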 Raw values vary from plate to plate and are shown uncorrected. A number with no mark means an inactive call. A plus sign joins genes that one reagent is predicted to hit. Further read-outs or replicates are left out here. Reagent sequences are not shown. The record does not give: the amount of reagent, the time to read-out.

- Assay: 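Genome-wide fly cell screen for genes dengue virus requires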 (primary screen)
- System: D.Mel-2 cells from Drosophila
- Knock-down reagent: long dsRNA against Drosophila genes
- Challenge: infection with dengue virus type 2; dose and infection time not stated
- Detection: 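Per well on two replicate plates, imaging gave the percent of cells positive for viral envelope protein, ranked by infection, and a nuclear count of cells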
- Scale: infection score: higher = more virus-infected cells; cell count: higher = more cells in the well
- Rule for the call: 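Low infection ranks in the two replicates (chance level up to 0.065) followed by a retest with a 1.5-fold or larger significant decrease, p below 0.05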
- Calls: active = confirmed: knock-down lowers infection; inactive = not picked or not confirmed

Knock-down of CG8191 + CG12379 [DRSC19451] gave: cell count, replicate 1 = 440. Silencing of wor [DRSC03637] gave: infection score, replicate 1 = 11.9; cell count, replicate 1 = 6121. With knock-down of wor [DRSC25651] the results were infection score, replicate 1 = 2.34; cell count, replicate 1 = 6321. e [DRSC16936] showed infection score, replicate 1 = 2.44; cell count, replicate 1 = 6549. With knock-down of e [DRSC24320], the screen gave infection score, replicate 1 = 1.9; cell count, replicate 1 = 6536. Pex11ab [DRSC07145] scored infection score, replicate 1 = 21.8; cell count, replicate 1 = 6813.

With knock-down of TwdlQ [DRSC23107], the screen gave infection score, replicate 1 = 3.28; cell count, replicate 1 = 6624. For TwdlQ [DRSC27737] the deposit lists infection score, replicate 1 = 18.8; cell count, replicate 1 = 6664. Depletion of Cyp4ac3 [DRSC03304] came out at: infection score, replicate 1 = 15.1; cell count, replicate 1 = 5653. After knock-down of IntS6 [DRSC18281], the record shows infection score, replicate 1 = 10.1; cell count, replicate 1 = 5011. Knock-down of IntS6 [DRSC30100] gave: infection score, replicate 1 = 2.21; cell count, replicate 1 = 6571. After knock-down of CG5906 [DRSC10557], the record shows infection score, replicate 1 = 2.73; cell count, replicate 1 = 6333.

For arm [DRSC18738], the entry reads infection score, replicate 1 = 14.7; cell count, replicate 1 = 5538. CG8531 [DRSC07209] showed infection score, replicate 1 = 5.52; cell count, replicate 1 = 6018. After knock-down of LManI [DRSC02838] the results were infection score, replicate 1 = 23.5; cell count, replicate 1 = 5355. For LManI [DRSC24754], the entry reads infection score, replicate 1 = 3.09; cell count, replicate 1 = 6495. With knock-down of CG18418 [DRSC08535] the results were infection score, replicate 1 = 7.46; cell count, replicate 1 = 6433. Knock-down of CG18418 [DRSC25732] gave: infection score, replicate 1 = 20.9; cell count, replicate 1 = 6569.

lwr [DRSC00828] scored infection score, replicate 1 = 3.8; cell count, replicate 1 = 4846. With knock-down of lwr [DRSC27034] the results were infection score, replicate 1 = 12.3; cell count, replicate 1 = 5304. With knock-down of CG31883 [DRSC02561] the results were infection score, replicate 1 = 6.27; cell count, replicate 1 = 6410. CG30398 [DRSC03891] scored infection score, replicate 1 = 0.47; cell count, replicate 1 = 6576. Depletion of CG6254 [DRSC16002] gave: infection score, replicate 1 = 8.39; cell count, replicate 1 = 3800. Depletion of CG7099 [DRSC03006] gave: infection score, replicate 1 = 21; cell count, replicate 1 = 3216.

With knock-down of CG7099 [DRSC27321], the record shows infection score, replicate 1 = 7.3; cell count, replicate 1 = 6148. Against CR9337 [DRSC03212], the entry reads infection score, replicate 1 = 8.61; cell count, replicate 1 = 6379. Knock-down of CR9337 [DRSC29798] gave: infection score, replicate 1 = 27.8; cell count, replicate 1 = 5801.
